Compound potency records, mixed from different reports. Data source: NIAID ChemDB in PubChem.

Common to all: host cell toxicity; cell line: MT-4; endpoint: CC50

Neighbouring rows are from separate reports.

smiles,read by,value
Cc1cn([C@H]2C[C@H](N=[N+]=[N-])[C@@H](CO)O2)c(=O)[nH]c1=O,MTT / absorbance,>7.48 µM
CC(=O)N1N=C(C2CCC3C4CC=C5C[C@@H](O)CC[C@]5(C)C4CC[C@]23C)CC1c1ccc(Br)cc1,,>0.29 µM
COC(=O)CCCCn1c(=O)c(C)cn([C@@H]2O[C@H](CO[Si](C)(C)C(C)(C)C)[C@@H](O)[C@H]2O[Si](C)(C)C(C)(C)C)c1=O,,18 µM
CCCCC1(CCc2cccc(NS(=O)(=O)c3ccc(C(F)(F)F)cn3)c2)COC(=O)C(C(CC)c2cccc(NS(=O)(=O)c3ccc(C(F)(F)F)cn3)c2)=C1O,,33.7 µM
CNc1ccc2c(COc3ccc(Cl)c(Oc4cc(Cl)cc(C#N)c4)c3)[nH]nc2n1,microscopy,>20 µM
COC(=O)Cn1c(=O)c(C)cn([C@@H]2O[C@H](CO[Si](C)(C)C(C)(C)C)[C@@H](O)[C@H]2O[Si](C)(C)C(C)(C)C)c1=O,,11 µM
NS(=O)(=O)c1ccc(NC(=O)COc2cccc(Cc3ccccc3)c2)c(Cl)c1,microscopy,>20 µM
COC(=O)/C=C1\S/C(=N/N=C/c2cc(OC)c(O)c(OC)c2)NC1=O,MTT,14.5 µM
Cc1cn([C@@H]2O[C@H](C(CO[Si](C)(C)C(C)(C)C)O[Si](C)(C)C(C)(C)C)C3(OS(=O)(=O)C=C3N)[C@H]2O[Si](C)(C)C(C)(C)C)c(=O)[nH]c1=O,,>136 µM
CCCn1c(Sc2cc[n+]([O-])cc2)c([N+](=O)[O-])c(=O)[nH]c1=O,,0.313 µg/mL
COC(=O)c1ccc(NC(=O)COc2cccnc2-c2cccc3ccccc23)c(Cl)c1,MTT / absorbance,9.35 µM
CNOC(=O)Cn1c(=O)c(C)cn([C@@H]2O[C@H](CO[Si](C)(C)C(C)(C)C)[C@@H](O[Si](C)(C)C(C)(C)C)[C@H]2O)c1=O,,4.2 µM
CC(=O)c1ccc(NC(=O)COc2cccnc2-c2cccc3ccccc23)c(Br)c1,MTT / absorbance,5.51 µM
COc1cccc2c1nc(-c1ccccc1F)n2Cc1cccs1,,12.04 µg/mL
NOCc1c(F)cccc1Cl,,62.3 µg/mL
Cc1cn([C@@H]2O[C@H](CO[Si](C)(C)C(C)(C)C)[C@@H](O)[C@H]2O[Si](C)(C)C(C)(C)C)c(=O)n(Cc2nn[nH]n2)c1=O,,2.1 µM
C[C@H]1CCC2(OCCO2)[C@H]2CN1C(=O)c1c(O)c(=O)c(C(=O)NCc3ccc(F)cc3F)cn12,luminescence,29.4 µM
C=C(C)Cn1c(-c2ccccc2F)nc2c(OC)cccc21,,11.93 µg/mL
NOCc1ccc(Cl)cc1Cl,,48.1 µg/mL
N#Cc1cc(Cl)cc(Oc2cc(OCc3nc4cccc(Cl)c4s3)ccc2Cl)c1,microscopy,>20 µM
Cc1cn([C@@H]2O[C@H](CO[Si](C)(C)C(C)(C)C)[C@@H](O)[C@H]2O[Si](C)(C)C(C)(C)C)c(=O)n(CCCCC(=O)O)c1=O,,16 µM
Cn1c(Sc2ccncc2)c([N+](=O)[O-])c(=O)n(C)c1=O,,11.6 µg/mL
Cc1cn([C@@H]2O[C@H](C3CO[Si](C(C)C)(C(C)C)O[Si](C(C)C)(C(C)C)O3)C3(OS(=O)(=O)C=C3N)[C@H]2O[Si](C)(C)C(C)(C)C)c(=O)[nH]c1=O,,4.5 µM
CCCn1c(Cl)c([N+](=O)[O-])c(=O)[nH]c1=O,,≥62.4 µg/mL
C[C@]12CCC3C(CC=C4CC(O)CC[C@@]43C)C1CCC2C(=O)/C=C/c1ccc(/C=C/C(=O)C2CCC3CCC4C(CC=C5C[C@@H](O)CC[C@@]54C)[C@]32C)cc1,,47.75 µM
CCCn1c(Sc2ccccc2)c(N)c(=O)[nH]c1=O,,≥44.3 µg/mL
COc1cccc2c1nc(-c1ccccc1F)n2Cc1ccc(Cl)cc1,,>17.9 µg/mL
COC(=O)/C=C1\S/C(=N/N=C/c2ccccc2Cl)NC1=O,MTT,78.7 µM
C[C@H]1CC[C@]2(CC(n3nccn3)=NO2)[C@H]2CN1C(=O)c1c(O)c(=O)c(C(=O)NCc3c(F)cc(F)cc3F)cn12,luminescence,3.185 µM
C[C@]12CCC3C(CC=C4C[C@@H](O)CC[C@@]43C)C1CCC2C(=O)/C=C/c1ccsc1,,>125 µM
CC1=NO[C@]2(CC[C@H](C)N3C[C@H]2n2cc(C(=O)NCc4ccc(F)cc4F)c(=O)c(O)c2C3=O)C1=O,luminescence,50 µM
COc1cccc2c1nc(-c1ccccc1F)n2Cc1ccc(F)cc1,,13.8 µg/mL
COC(=O)/C=C1\S/C(=N/N=C/C2CCCCC2)NC1=O,MTT,57.53 µM
COc1ccc(-c2ncccc2OCC(=O)Nc2ccc(C(N)=O)cc2)cc1,MTT / absorbance,176 µM
CNOC(=O)Cn1c(=O)c(C)cn([C@@H]2O[C@H](CO[Si](C)(C)C(C)(C)C)[C@@H](O)[C@H]2O[Si](C)(C)C(C)(C)C)c1=O,,4.2 µM
Cc1ccc(NC(=O)COc2cccnc2-c2cccc3ccccc23)c([N+](=O)[O-])c1,MTT / absorbance,19.3 µM
COc1cccc2c1nc(-c1ccccc1F)n2Cc1ccco1,,14.2 µg/mL
NOCc1ccccc1F,,74.7 µg/mL
O=C(O)c1c(Cl)c(Cl)c(Cl)c(Cl)c1-c1c2cc(I)c(=O)c(I)c-2oc2c(I)c(O)c(I)cc12,,>1 µM
N#Cc1cc(Cl)cc(Oc2cc(OCc3[nH]nc4nc(N5CCC(N)C5)ccc34)ccc2Cl)c1,microscopy,>20 µM
C[C@]12CCC3C(CC=C4C[C@@H](O)CC[C@@]43C)C1CCC2C(=O)/C=C/c1cc(Br)ccc1O,,12.05 µM
C[C@H]1CC[C@@]2(CC(CF)=NO2)[C@H]2CN1C(=O)c1c(O)c(=O)c(C(=O)NCc3ccc(F)cc3F)cn12,luminescence,50 µM
COc1ccc(-c2ncccc2OCC(=O)Nc2ccc(S(N)(=O)=O)cc2)cc1,MTT / absorbance,243 µM
Cc1cc(OCc2nc3ccccc3s2)cc(Oc2cc(Cl)cc(C#N)c2)c1,microscopy,>20 µM
NOCc1cccc(Cl)c1Cl,,44.8 µg/mL
C[C@H]1CC[C@]2(CC(=O)N(Cc3ccc(F)cc3)O2)[C@H]2CN1C(=O)c1c(O)c(=O)c(C(=O)NCc3c(F)cc(F)cc3F)cn12,luminescence,50 µM
Cc1ccc(-c2nnc(COc3ccc(Cl)c(Oc4cc(Cl)cc(C#N)c4)c3)o2)cc1,microscopy,>20 µM
COC(=O)c1ccc(NC(=O)COc2cccnc2-c2cccc3ccccc23)cc1,MTT / absorbance,64.9 µM
CCCCC1(CCc2cccc(NS(=O)(=O)c3ccc(F)cc3)c2)COC(=O)C(C(CC)c2cccc(NS(=O)(=O)c3ccc(F)cc3)c2)=C1O,,52.4 µM
Cc1ccc(/C=C/C(=O)C2CCC3C4CC=C5C[C@@H](O)CC[C@]5(C)C4CC[C@]23C)cc1,,55.38 µM
NS(=O)(=O)c1ccc(NC(=O)COc2cccnc2-c2ccc(C(F)(F)F)cc2)cc1,MTT / absorbance,220 µM
Cn1c(Sc2cc[n+]([O-])cc2)c([N+](=O)[O-])c(=O)n(C)c1=O,,0.275 µg/mL
COCCN(C)c1ccc2c(COc3ccc(Cl)c(Oc4cc(Cl)cc(C#N)c4)c3)[nH]nc2n1,microscopy,>20 µM
CCCCC1(CCc2cccc(NS(=O)(=O)c3ccc(C#N)cc3)c2)COC(=O)C(C(CC)c2cccc(NS(=O)(=O)c3ccc(C#N)cc3)c2)=C1O,,46.9 µM
O=C(COc1cccnc1-c1cccc2ccccc12)Nc1cccnc1Cl,MTT / absorbance,179 µM
C[C@H]1CC[C@]2(CC(C3CC3)=NO2)[C@H]2CN1C(=O)c1c(O)c(=O)c(C(=O)NCc3ccc(F)cc3F)cn12,luminescence,50 µM
COC(=O)/C=C1\S/C(=N/N=C/c2cccc(Br)c2)NC1=O,MTT,11.15 µM
C[C@H]1CC[C@]2(CC(=O)N(Cc3cnn(C)n3)O2)[C@H]2CN1C(=O)c1c(O)c(=O)c(C(=O)NCc3c(F)cc(F)cc3F)cn12,luminescence,50 µM
CC1(C)C(=O)CC[C@]2(C)[C@@H]1CC[C@@]13CC[C@@H](C[C@H]12)C([C@@H](O)CO)C3,MTT,>20 µg/mL

CCn is the concentration with n% toxicity to the cells. An empty or dashed field is not shown.